{"sequences": {"note": "The chains behind the UniProt entries cited, without tags or fusion partners.", "UniProt Q1HVG2, whole entry": "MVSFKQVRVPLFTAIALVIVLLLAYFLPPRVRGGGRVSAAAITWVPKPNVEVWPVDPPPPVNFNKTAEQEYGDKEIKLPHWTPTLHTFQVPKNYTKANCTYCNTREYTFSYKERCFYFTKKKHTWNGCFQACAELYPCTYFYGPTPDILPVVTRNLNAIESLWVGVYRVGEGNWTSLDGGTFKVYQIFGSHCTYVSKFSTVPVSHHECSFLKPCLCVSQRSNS"}, "source": "PubChem BioAssay AID1085", "about": "(Emory University Molecular Libraries Screening Center, 2008)", "note": "The entries are a selection whose mix differs from that of the whole data set. Activity calls are given as the source filed them. Cut-off read from the data, not from the text of the source: active = inhibition above about 50%; inactive = the rest."}
{"target": "Glycoprotein 42 (Epstein-Barr virus (strain AG876)) (UniProt Q1HVG2)", "assay": "EBV glycoprotein 42 binding blockers – biochemical, uHTS, fluorescence polarization, primary screen (AID 1085)", "settings": "Fluorescence polarization binding assay, mP read-out; active compounds read high; tested at 21.74 µM"}
{"smiles": "COC(=O)c1cc2c(s1)N=C(c1ccccc1)N(C)P2(=O)N1CCOCC1", "note": "(stereo unspecified)", "inhibition": "inactive: -16.1%"}
